Pooled drug test results. Numbers come from NIAID ChemDB, via PubChem.

All rows: tests in culture; organism: HIV-1; read by: cytopathic effect / XTT; endpoint: fold resistance

Rows are shuffled and stem from different studies. An empty or dashed field is not shown. Fold resistance has wild type as its base.

smiles | strain | cells | mutations | value
O=S1(c2ccccc2)=NC(=S)Nc2ccccc21 | IIIB(TIBO-R(I)) | CEM + CEM-SS | RT-A98G V108I | 44.5
Cc1ccnc2c1NC(=O)c1cccnc1N2C1CC1 | NL4-3 | CEM + CEM-SS | RT-Y181C | 65
O=C1N(Cc2ccc(CO)cc2)[C@H](COc2ccccc2)[C@H](O)[C@@H](O)[C@@H](COc2ccccc2)N1Cc1ccc(CO)cc1 | IIIB | MT-4 | PR-L90M | 1.71
Cc1cn([C@@H]2O[C@H](CO[Si](C)(C)C(C)(C)C)C3(OS(=O)(=O)C=C3N)[C@H]2O[Si](C)(C)C(C)(C)C)c(=O)n(C)c1=O | IIIB | CEM | RT-L100I | 2
Nc1nc(N)c2ncn([C@H]3CO[C@@H](CO)O3)c2n1 |  | MT-2 | RT-K65R | 6
CC(C)=CCN1Cc2cccc3[nH]c(=S)n(c23)C[C@@H]1C | IIIB | CEM + CEM-SS | RT-Y181C | 25
O=[N+]([O-])c1ccccc1S(=O)(=O)c1ccccc1 | IIIB(THZ-R(I)) | CEM + CEM-SS | RT-V108I | >60
Nc1ccn([C@H]2CC[C@@H](CO)O2)c(=O)n1 | 22(RT-L100I Y188H) | MT-4 | RT-L100I Y188H | 0.15
Cc1occc1C(=S)Nc1ccc(Cl)c(/C=N/OC(C)(C)C)c1 | Oxathiin carboxanilide-resistant RT L100I | CEM + CEM-SS | RT-L100I | 10
Cc1ccnc2c1NC(=O)c1cccnc1N2C1CC1 | CALO(RT-T139I) | CEM + CEM-SS | RT-T139I | 1
Cc1cn([C@H]2C[C@H](N=[N+]=[N-])[C@@H](CO)O2)c(=O)[nH]c1=O | 118(RT-L100I) | MT-4 | RT-L100I | 0.5
CC(C)=CCN1Cc2cccc3[nH]c(=S)n(c23)C[C@@H]1C | IIIB HEPT-resistant (IV) | CEM + CEM-SS | RT-P236L | 1
CC1=CC(=O)C(C)(C2=NC(C)(C)CO2)c2ccccc21 | RF | CEM + CEM-SS | RT-Y181C | >37
CC1=C(C(=O)Nc2ccc(Cl)c(C(=O)OC(C)C)c2)SCCO1 | UC38-R(RT-Y181C | CEM + CEM-SS | RT-Y181C | 6
Fc1cccc(F)c1[C@@H]1SCc2nc3ccccc3n21 | IIIB | CEM | RT-V106N | ≥6.25
Cc1cn([C@H]2C=C[C@@H](CO)O2)c(=O)[nH]c1=O | Site-directed mutant | MT-2 | RT-K65R M184V | 1.4
CCc1c(Sc2ccccn2)n(COCc2ccccc2)c(=O)[nH]c1=O | NL4-3 | CEM + CEM-SS | RT-A98G | 1.11
CCc1cc(NCc2nc3c(Cl)ccc(Cl)c3o2)c(=O)[nH]c1C | UC38-R(RT-Y181C | CEM + CEM-SS | RT-Y181C | 276
Cc1cn([C@H]2C[C@H](N=[N+]=[N-])[C@@H](CO)O2)c(=O)[nH]c1=O | NL4-3 | CEM + CEM-SS | RT-Y181C | 3.33
c1ccc2c(c1)sc1nccn12 | IIIB(CALO-R(II)) | CEM + CEM-SS | RT-V90I T139I P225S | 2
O=S(=O)(c1ccccc1)c1ccccc1 | UC38-R(RT-Y181C | CEM + CEM-SS | RT-Y181C | 8
Nc1nc(NC2CC2)c2ncn([C@H]3C=C[C@@H](CO)C3)c2n1 | Site-directed mutant | MT-2 | RT-K65R Y115F | >8
Cc1cn([C@H]2C[C@H](N=[N+]=[N-])[C@@H](CO)O2)c(=O)[nH]c1=O | NL4-3 | CEM + CEM-SS | RT-V108I | 8
Fc1cccc(F)c1C1SCc2nc3ccccc3n21 | IIIB | CEM | RT-K103N | 11.2
C/C=C/CSc1cc(NC(=S)c2ccsc2C)ccc1Cl | Costatolide-resistant (RT Y188H) | CEM + CEM-SS | RT-Y188H | 5
Nc1nc2c(ncn2[C@H]2CO[C@@H](CO)O2)c(=O)[nH]1 |  | MT-2 | RT-L74V | 3.75
Fc1cccc(F)c1C1SCc2nc3ccccc3n21 | UC38-R(RT-Y181C | CEM + CEM-SS | RT-Y181C | 8
Cc1ccnc2c1NC(=O)c1cccnc1N2C1CC1 | NL4-3 | CEM + CEM-SS | RT-A98G | 10
Cc1occc1C(=S)Nc1ccc(Cl)c(/C=N/OC(C)(C)C)c1 | Dihydrocostatolide-resistant (RT-L100I) | CEM + CEM-SS | RT-L100I | 10